Results of unrelated studies side by side (data: NIAID ChemDB).

All rows: whole-cell or culture tests; agent: Mycobacterium bovis

Lines come from different laboratories, so protocols vary.

structure | strain | method | setting | measure | dose | value
C/C=C/C/C=C/CCC(=O)[C@H]1O[C@H]1C(N)=O | BCG (PMV261::KASA) | - | - | MIC | - | 0.1 µg/mL
COc1ccc2c(c1NC(=S)Nc1ccc([N+](=O)[O-])cc1)C(C)(C)COC2(C)C | BCG | - | - | MIC | - | 20–40 µg/mL
O=c1[nH]c2cc(O)ccc2c(O)c1-c1ccccc1 | AN5 lux | luminescence | - | MIC90 | - | 11.5 µM
C[C@]1(COc2ccc(N3CCC(Oc4ccc(OC(F)(F)F)cc4)CC3)cc2)Cn2cc([N+](=O)[O-])nc2O1 | BCG Pasteur | - | - | MIC | - | 0.006 µg/mL
CCOC(=O)c1ccc(NC(=S)Nc2ccc3c(c2)C(C)=CC(C)(C)N3C)cc1 | BCG | - | - | MIC | - | 20–40 µg/mL
COc1nn(-c2cccc(Oc3ccccc3)c2)c(=O)o1 | - | - | - | MIC99 | - | 10–20 µg/mL
COc1ccnc2[nH]cc(C(=O)C(=O)N3CCN(C(=O)c4ccccc4)C[C@H]3C)c12 | BCG | - | pseudotyped | EC50 | - | 0.001 µM
CCCCCC#Cc1cn([C@H]2C[C@H](O)[C@@H](CO)O2)c(=O)[nH]c1=O | - | - | - | MIC90 | - | >100 µg/mL
CCOC(=O)c1ccc(NC(=S)Nc2ccc3c(c2)C(C)(C)CC(C)(C)O3)cc1 | BCG | - | - | MIC | - | 5–10 µg/mL
Cc1ccc(-c2cnc3cc4ccccc4cc3n2)cc1 | BCG | - | - | EC50 | - | 1.2 µM
Cc1cc2[nH]c(=O)c(-c3ccccc3)c(O)c2cc1C | AN5 lux | luminescence | - | MIC90 | - | 13.2 µM
O=c1[nH]c(=O)n(C/C=C\CN2c3cccc4c3N(CCC4)S2(=O)=O)cc1Br | BCG Pasteur | resazurin / absorbance | - | EC50 | - | >160 µg/mL
CCc1cn([C@H]2C[C@H](O)[C@@H](CO)O2)c(=O)[nH]c1=O | BCG | resazurin | - | inhibition | 100 µg/mL | 0%
c1ccc(-c2cnc3cc4ccccc4cc3n2)cc1 | BCG | - | - | EC50 | - | 0.9 µM
O=c1[nH]c(=O)n([C@H]2C[C@H](F)[C@@H](CO)O2)cc1C(F)(F)F | BCG | resazurin | - | inhibition | 100 µg/mL | 0%
C=C/C(C)=C/[C@@]1(C)SC(=O)C(C)=C1O | BCG (PMV261::KASAB) | - | - | MIC | - | 150–200 µg/mL
CCOC(=O)c1ccc(NC(=O)Nc2ccc3c(c2)C(C)(C)CC(C)(C)O3)cc1 | BCG | - | - | MIC | - | 20–40 µg/mL
O=c1[nH]c2c(O)cccc2c(O)c1-c1ccccc1 | AN5 lux | luminescence | - | MIC90 | - | 9.9 µM
Brc1ccc(-c2cnc3cc4ccccc4cc3n2)cc1 | BCG | - | - | EC50 | - | <1 µM
Cc1cn(C/C=C\Cn2c(=O)n3c4c(cccc42)CC(N)C3)c(=O)[nH]c1=O | BCG Pasteur | resazurin / absorbance | - | EC50 | - | >160 µg/mL

For reference, 2 entries again:

structure | strain | method | setting | measure | dose | value
c1ccc(-c2cnc3cc4ccccc4cc3n2)cc1 | BCG | - | - | EC50 | - | 0.9 µM
CCOC(=O)c1ccc(NC(=O)Nc2ccc3c(c2)C(C)(C)CC(C)(C)O3)cc1 | BCG | - | - | MIC | - | 20–40 µg/mL

A number after MIC or MFC names an inhibition level or a share of isolates. Percent inhibition refers to the dose given; in toxicity tests it is the harm to the cells. Blank or dashed fields: not listed here. Two numbers with a dash give a range or band. ECn: concentration that inhibits the pathogen or its effect by n%.